Experimental data reported in patent US20250263467A1.

How the values were obtained:
[1] = biological target: SARS-CoV-2 Spike protein on pseudotyped virus (SARS-CoV-2 (Wuhan-Hu-1)) (UniProt P0DTC2); assay: cell-based or functional assay
[2] = biological target: SARS-CoV-2 Spike protein on pseudotyped virus (SARS-CoV-2 (Wuhan-Hu-1)) (UniProt P0DTC2); assay: cell-based or functional assay; remark: listed apart in the source

S309 rIgG1-LS (antibody)
IC50, neutralization of SARS-CoV-2pp on DBT-ACE2 cells [1]: 3.82 nM | IC50, neutralization of SARS-CoV-2pp on DBT-ACE2 cells [2]: 3.9 nM | maximum neutralization, VSV pseudotype, A549-ACE2-TMPRSS2 clone 5 cells [2]: 65%

Where two headings read alike, the source gives them in different places.
